{"source": "paper PMC9866728", "about": "“Dosing Methods to Enable Cell-Based In Vitro Testing of Complex Substances: A Case Study with a PAH Mixture” (Toxics, 2022)", "experiment": "Protein binding: media-dissolved fraction (FMD) and unbound fraction (FUB) in cell culture media without cells (ultracentrifugation, GC-MS/MS)", "note": "Values joined by “and” are separate entries in the source; they are usually repeats but may differ in a detail not shown here. Identical values can stand only once."}
{"smiles": "c1ccc2ccccc2c1", "note": "[Naphthalene]", "values": [{"measurement": "ISTD Resp. Ratio, stock", "setting": "0.375 ug/mL DMSO extract, 1 hr exposure block, stock reference samples STOCK_R1-R3, raw GC-MS/MS response ratio to ISTD", "result": "8.133 and 7.988 and 8.011"}, {"measurement": "ISTD Resp. Ratio (Raw Data for FMD)", "setting": "0.375 ug/mL DMSO extract, 1 hr exposure, media-dissolved fraction, replicates DMSO_FMD_R1-R4, raw GC-MS/MS response ratio to ISTD", "result": "0.9269 and 0.818 and 0.8426 and 0.8495"}, {"measurement": "ISTD Resp. Ratio (Raw Data for FUB)", "setting": "0.375 ug/mL DMSO extract, 1 hr exposure, unbound fraction, replicates DMSO_FUB_R1-R4, raw GC-MS/MS response ratio to ISTD", "result": "0.08415 and 0.08288 and 0.08584 and 0.0813"}, {"measurement": "ISTD Resp. Ratio, stock", "setting": "0.375 ug/mL DMSO extract, 24 hr exposure block, stock samples STOCK_R1-R3, GC-MS/MS area ratio to ISTD", "result": "7.98 and 7.9837 and 7.945"}, {"measurement": "ISTD Resp. Ratio (Raw Data for FMD)", "setting": "0.375 ug/mL DMSO extract, 24 hr exposure, media-dissolved fraction samples, replicates DMSO_FMD_R2-R4, GC-MS/MS area ratio to ISTD", "result": "0.3662 and 0.358 and 0.3311"}, {"measurement": "ISTD Resp. Ratio (Raw Data for FMD)", "setting": "0.375 ug/mL DMSO extract, 24 hr exposure, media-dissolved fraction, replicate DMSO_FMD_R1, raw GC-MS/MS response ratio to ISTD", "result": 0.3564}, {"measurement": "ISTD Resp. Ratio (Raw Data for FUB)", "setting": "0.375 ug/mL DMSO extract, 24 hr exposure, unbound fraction samples, replicates DMSO_FUB_R1-R4, GC-MS/MS area ratio to ISTD", "result": "0.003002 and 0.001979 and 0.002153 and 0.002289"}, {"measurement": "ISTD Resp. Ratio (raw data for FMD)", "setting": "10 ug/mL MAF (MAF_1H_FMD), 1 hour exposure, replicates R1-R3", "result": "11.5368 and 10.6183 and 12.391"}, {"measurement": "ISTD Resp. Ratio (raw data for FUB)", "setting": "10 ug/mL MAF (MAF_1H_FUB), 1 hour exposure, replicates R1-R3", "result": "1.688 and 1.9128 and 1.817"}, {"measurement": "ISTD Resp. Ratio, Raw Data for FMD (media-dissolved fraction)", "setting": "10 ug/mL MAF, 24 hour exposure, samples MAF_24H_FMD_R1-R3 (replicates), raw GC-MS/MS analyte/ISTD response ratio", "result": "3.124 and 3.299 and 3.208"}, {"measurement": "ISTD Resp. Ratio, Raw Data for FUB (unbound fraction)", "setting": "10 ug/mL MAF, 24 hour exposure, samples MAF_24H_FUB_R1-R3 (replicates), raw GC-MS/MS analyte/ISTD response ratio", "result": "0.491 and 0.4462 and 0.6985"}, {"measurement": "ISTD Resp. Ratio (Raw Data for FMD)", "setting": "10 ug/mL micro-O-Rings, 1 hour exposure, media-dissolved fraction samples, replicates ORINGS_1H_FMD_R1-R3, GC-MS/MS area ratio to ISTD", "result": "0.006236 and 0.01602 and 0.1099"}, {"measurement": "ISTD Resp. Ratio (Raw Data for FUB)", "setting": "10 ug/mL micro-O-Rings, 1 hour exposure, unbound fraction samples, replicates ORINGS_1H_FUB_R1-R3, GC-MS/MS area ratio to ISTD", "result": "0.001735 and 0.001255 and 0.08302"}, {"measurement": "ISTD Resp. Ratio (Raw Data for FMD)", "setting": "10 ug/mL micro-O-Rings, 24 hour exposure, media-dissolved fraction samples, replicate ORINGS_24H_FMD_R1, GC-MS/MS area ratio to ISTD", "result": 0.005629}, {"measurement": "ISTD Resp. Ratio (raw data for FMD)", "setting": "O-rings (ORINGS_24H_FMD), 24 hour exposure, media without cells, GC-MS/MS analyte/ISTD response ratio, replicates R2-R3", "result": "0.1109 and 0.07326"}, {"measurement": "ISTD Resp. Ratio (raw data for FUB)", "setting": "O-rings (ORINGS_24H_FUB), 24 hour exposure, media without cells, GC-MS/MS analyte/ISTD response ratio, replicates R1-R3", "result": "0.001391 and 0.001433 and 0.001313"}, {"measurement": "ISTD Resp. Ratio, stock", "setting": "STOCK_10_R1-R3 (replicates) of the block 10 ug/mL MAF, 24 hr exposure, raw GC-MS/MS analyte/ISTD response ratio", "result": "129.443 and 129.454 and 131.226"}, {"measurement": "ISTD Resp. Ratio (STOCK_10)", "setting": "STOCK_10 reference samples of the O-rings section, replicates R1-R3", "result": "100.74 and 103.988 and 107.809"}]}
